Key:
[1] = Drug accumulation in Chronic constriction injury rat muscle tissue at 15 mg/kg,IM administration and measured for 8 hrs by FITC-labeled fluorescence imaging analysis; settings: in vivo
[2] = Drug accumulation in Chronic constriction injury rat muscle tissue at 15 mg/kg,IM administration and measured for 4 to 48 hrs by HPLC analysis; settings: in vivo

Question: With CC[C@H](C)[C@H](NC(=O)[C@H](CCCNC(=N)N)NC(=O)[C@H](CCCNC(=N)N)NC(=O)[C@H](Cc1ccc(O)cc1)NC(=O)[C@H](CCCNC(=N)N)NC(=O)[C@H](CCCNC(=N)N)NC(=O)[C@H](CCCNC(=N)N)NC(=O)[C@H](CCCNC(=N)N)NC(=O)[C@H](CC(=O)O)NC(=O)[C@H](Cc1ccc(O)cc1)NC(=O)[C@@H]1CCCN1C(=O)[C@H](CO)NC(=O)[C@H](CCCNC(=N)N)NC(=O)[C@H](Cc1ccc(O)cc1)NC(=O)[C@H](CCCNC(=N)N)NC(=O)CN)C(=O)N[C@H](C(=O)N[C@@H](CC(=O)O)C(N)=O)[C@@H](C)O as the compound, how does the Drug uptake [1] read?
Answer: Its Drug uptake is “Active”.

Question: And the Drug uptake [2]?
Answer: The Drug uptake was “Active”.
